PubChem BioAssay AID1259414, Drosophila RNAi Screening Center, 2018

Aim: 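Host factors increasing or decreasing Wolbachia levels in cultured fly cells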 (primary screen)
Cells: Drosophila JW18 cells infected with Wolbachia
Reagent: long dsRNA against Drosophila genes, 0.25 µg dsRNA per well of a 384-well plate
Time to read-out: 5 days
Conditions: cells persistently infected with Wolbachia before knock-down; no added drug
Measured: 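Imaged fluorescence in situ signal for Wolbachia 23S rRNA per DAPI-counted host cell, given as a robust z-score within each plate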
Direction: Wolbachia per cell robust z: higher = more Wolbachia per host cell than the plate typical
Hit rule: 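Hit when robust z is 1.5 or more, or -1.5 or less, in at least two of three replicates; excludes dsRNAs with several or no targets, genes not expressed in JW18 and well A1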
The screen tested about 24,000 reagents; below is a random part of those that have a named target and a result. Of all reagents, about 1,210 (5%) were called active. 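Inactive calls also include excluded dsRNAs with several or no targets, genes unexpressed in JW18, and well A1, regardless of score.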 Names joined by + are all predicted targets of the reagent.

| Gene | amplicon | Wolbachia per cell robust z, rep 1 | Wolbachia per cell robust z, rep 2 | Wolbachia per cell robust z, rep 3 | Outcome |
| --- | --- | --- | --- | --- | --- |
| UQCR-Q (Ubiquinol-cytochrome c reductase ubiquinone-binding protein) | DRSC10886 | -0.758 | -1.99 | -2.02 | active |
| Art3 (Arginine methyltransferase 3) | DRSC16065 | -0.0785 | -0.229 | 1.24 | inactive |
| CG10383 | DRSC02050 | -0.204 | -0.0417 | -1.45 | inactive |
| CG10383 | DRSC29310 | 1.23 | -0.0147 | 0.127 | inactive |
| Takl1 (Tak1-like 1) | DRSC13443 | -5.01 | 0.81 | -0.643 | inactive |
| Takl1 (Tak1-like 1) | DRSC28251 | 0.337 | 2.21 | 1.05 | inactive |
| CG30060 | DRSC05419 | 0.387 | -0.409 | 0.566 | inactive |
| primo-2 + primo-1 | DRSC16511 | -3.57 | -4.48 | 1.03 | inactive |
| primo-2 + primo-1 | DRSC27823 | -4.73 | 0.382 | 0.152 | inactive |
| CG8097 | DRSC20079 | -1.3 | -2.69 | 1.39 | inactive |
| Schip1 (Schwannomin interacting protein 1) | DRSC02851 | -5.35 | 0.127 | 0.376 | inactive |
| Schip1 (Schwannomin interacting protein 1) | DRSC28775 | 0.715 | -0.154 | 0.938 | inactive |
| Rrp5 (Ribosomal RNA Processing 5) | DRSC15862 | -0.176 | -0.417 | -0.277 | inactive |
| Rrp5 (Ribosomal RNA Processing 5) | DRSC29039 | -0.334 | -6.95 | -1.48 | inactive |
| CG7071 + Muted | DRSC16189 | 0.205 | -1.78 | -0.721 | inactive |
| Amy-d (Amylase distal) | DRSC05919 | 0.472 | 0.531 | 0.115 | inactive |
| Spn43Ad (Serpin 43Ad) | DRSC06770 | -2.89 | -0.121 | -0.379 | inactive |
| mRpS24 (mitochondrial ribosomal protein S24) | DRSC28886 | 1.45 | 0.898 | 0.73 | inactive |
| Rad23 | DRSC17167 | -0.623 | 0.383 | -0.24 | inactive |
| Cnx14D (Calnexin 14D) | DRSC20214 | 0.0842 | 0.687 | 0.0717 | inactive |
| Cnx14D (Calnexin 14D) | DRSC25425 | -0.18 | -1.37 | -0.869 | inactive |
| ScsbetaG (Succinyl-coenzyme A synthetase beta subunit, GDP-forming) | DRSC11294 | 2.31 | 1.09 | 0.927 | inactive |
| ScsbetaG (Succinyl-coenzyme A synthetase beta subunit, GDP-forming) | DRSC26044 | -0.259 | 0.185 | 0.568 | inactive |
| porin | DRSC03594 | 0.475 | 0.441 | -1.25 | inactive |
| porin | DRSC27826 | 0.426 | 0.478 | -0.704 | inactive |
| Wdr24 (WD repeat domain 24) | DRSC14151 | 0.304 | -0.104 | -1.74 | inactive |
| Spn (Spinophilin) | DRSC07986 | 2.33 | 0.161 | 0.68 | inactive |
| Spn (Spinophilin) | DRSC08490 | 0.633 | -0.885 | -0.248 | inactive |
| Spn (Spinophilin) | DRSC08491 | -0.103 | -0.102 | 0.464 | inactive |
| Bbd (Bombardier) | DRSC06709 | 0.309 | -1.77 | -1.22 | inactive |
| GluRS-m (Glutamyl-tRNA synthetase, mitochondrial) | DRSC10431 | -0.133 | 0.274 | -0.7 | inactive |
| GluRS-m (Glutamyl-tRNA synthetase, mitochondrial) | DRSC26953 | 0.188 | -0.891 | 0.292 | inactive |
| CG7409 | DRSC10842 | 0.729 | -0.135 | -0.717 | inactive |
| CG7409 | DRSC30043 | 0.691 | -0.499 | 1.04 | inactive |
| Gdap2 | DRSC06789 | 0.46 | 0.315 | -0.0485 | inactive |
| Gdap2 | DRSC06790 | 1.33 | 0.9 | 0.833 | inactive |
| Pcyt2 (Phosphocholine cytidylyltransferase 2) | DRSC08531 | -1.84 | 0.023 | -1.51 | active |
| CG5334 | DRSC19941 | -0.0463 | -0.507 | -0.581 | inactive |
| Apt1 (Acyl-protein thioesterase 1) | DRSC10348 | -0.305 | 0.405 | -0.663 | inactive |
| Prestin | DRSC10507 | 1.6 | 0.436 | 1.17 | inactive |
| tow (target of wingless) | DRSC23125 | -3.25 | 0.439 | 2.11 | inactive |
| tow (target of wingless) | DRSC26759 | 0.541 | 0.241 | 0.82 | inactive |
| Tim9b + Pstk + CG14210 | DRSC29021 | 0.347 | 0.793 | 0.675 | inactive |
| Rab35 | DRSC20691 | 1.1 | 2.03 | 1.66 | active |
| Rab35 | DRSC26739 | -5.5 | -3.81 | -6.91 | inactive |
| CG32544 | DRSC20033 | -0.687 | -0.777 | -0.621 | inactive |
| CG32544 | DRSC25570 | -0.301 | -1.61 | -1.2 | inactive |
| CG18258 | DRSC19798 | -1.99 | 0.212 | -3.75 | inactive |
| CG18258 | DRSC29203 | -0.138 | 0.27 | -0.318 | inactive |
| teq (Tequila) | DRSC10298 | 1.09 | 0.369 | 0.588 | inactive |
| teq (Tequila) | DRSC11301 | 0.458 | -1.09 | -2.4 | inactive |
| teq (Tequila) | DRSC11302 | -0.683 | -0.331 | 0.361 | inactive |
| CG14104 | DRSC10106 | 0.284 | 0.118 | 0.526 | inactive |
| CG15429 | DRSC00444 | -0.0941 | -0.495 | -1.18 | inactive |
| CG15429 | DRSC26501 | -0.308 | -0.69 | -0.452 | inactive |
| Rs1 | DRSC05945 | 1.29 | 0.456 | -9.84 | inactive |
| Rs1 | DRSC26592 | 0.998 | -0.675 | -0.119 | inactive |
| a5 (antennal protein 5) | DRSC00798 | 1.17 | 0.862 | -0.448 | inactive |
| CG4004 | DRSC19791 | -0.84 | -0.285 | 1.03 | inactive |
| CG4004 | DRSC19882 | -0.291 | -0.915 | -0.974 | inactive |
| CG4004 | DRSC26904 | -0.324 | -1.34 | -1.45 | inactive |
| FLASH (FLICE-associated huge protein) | DRSC06872 | 0.527 | -0.947 | -1.18 | inactive |
| FLASH (FLICE-associated huge protein) | DRSC26747 | -1.02 | 0.874 | -1.66 | inactive |
| osa | DRSC17022 | 2.64 | 1.07 | 2.38 | active |
| osa | DRSC40851 | -0.489 | -0.14 | -0.267 | inactive |
| axo (axotactin) | DRSC08116 | 0.351 | 0.357 | 0.463 | inactive |
| axo (axotactin) | DRSC08324 | 0.774 | -0.514 | -3.45 | inactive |
| axo (axotactin) | DRSC21337 | -0.984 | -1.5 | 0.264 | inactive |
| axo (axotactin) | DRSC23087 | -0.405 | 0.00467 | 1.36 | inactive |
| axo (axotactin) | DRSC28552 | -0.179 | -1.45 | -1.32 | inactive |

Entries above whose gene name begins with A or a (9):
| Gene | amplicon | Wolbachia per cell robust z, rep 1 | Wolbachia per cell robust z, rep 2 | Wolbachia per cell robust z, rep 3 | Outcome |
| --- | --- | --- | --- | --- | --- |
| Art3 (Arginine methyltransferase 3) | DRSC16065 | -0.0785 | -0.229 | 1.24 | inactive |
| Amy-d (Amylase distal) | DRSC05919 | 0.472 | 0.531 | 0.115 | inactive |
| Apt1 (Acyl-protein thioesterase 1) | DRSC10348 | -0.305 | 0.405 | -0.663 | inactive |
| a5 (antennal protein 5) | DRSC00798 | 1.17 | 0.862 | -0.448 | inactive |
| axo (axotactin) | DRSC08116 | 0.351 | 0.357 | 0.463 | inactive |
| axo (axotactin) | DRSC08324 | 0.774 | -0.514 | -3.45 | inactive |
| axo (axotactin) | DRSC21337 | -0.984 | -1.5 | 0.264 | inactive |
| axo (axotactin) | DRSC23087 | -0.405 | 0.00467 | 1.36 | inactive |
| axo (axotactin) | DRSC28552 | -0.179 | -1.45 | -1.32 | inactive |
